The values are deposited in ChEMBL (CHEMBL3988442, “University of Dundee, Small-Polar-MMV Screening Library” (2021)).

Mtb cholesterol medium: 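Phenotypic screen: M. tuberculosis growth, cholesterol and DPPC medium, 4 days; the read-out is not stated. Concentration: 50 µM. Direction is inferred from retests: higher values go with more growth inhibition. About 69,000 compounds were tested under these conditions; 0.54% (about 370) showed 50% or more at least once.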
Mtb glucose medium: 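Phenotypic screen: M. tuberculosis growth, glucose 7H9 medium, 3 days; the read-out is not stated. Compounds at 50 µM. Direction is inferred from retests: higher values go with more growth inhibition. About 69,000 compounds were tested under these conditions; 1.1% (about 760) showed 50% or more at least once.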

Results are given as percent effect. The record does not define 0% and 100%; most values in the screen are far below 50% and negative numbers occur (in some assays of this library far below -100). Many other results are left out here, so strong results are more common than in the screen. Two or more numbers in one place are separate tests of the same structure; such repeats can differ widely. A dash means the value is not listed here; it may have been measured.

* Clc1ccc(COCC2CCN(Cc3ccccn3)CC2)cc1.O=C(O)C(=O)O : Mtb cholesterol medium: 64.36%; Mtb glucose medium: 49.03%
* CCOc1ccc(C(F)(F)F)cc1NCc1cc(C)on1 : Mtb cholesterol medium: 14.38%
* CCOc1ccc(CNC(=O)N(C)CC(C)(C)O)cc1C : Mtb cholesterol medium: 3.459%; Mtb glucose medium: 14.65%
* c1cncc(-c2nc3c(c(NCC4(c5ccncc5)CC4)n2)CCC3)c1 : Mtb cholesterol medium: -3.819%; Mtb glucose medium: 28.54%
* [H][C@@]12CC(C)=CC[C@]1([H])CN(C(=O)c1ccnc(CCC)c1)C2 : Mtb glucose medium: 53.7%
* Cc1ccccc1CN(C)CC(O)COCc1ccccc1Cl (centres unmarked) : Mtb glucose medium: -52.38%
* Cc1ccc(CCCC(=O)N2CC(=O)Nc3cccnc32)s1 : Mtb cholesterol medium: -0.3991%; Mtb glucose medium: 2.641% and 7.002%
* Cc1cccnc1CN1CCOC(Cc2cccc3ccccc23)C1 (centres unmarked) : Mtb cholesterol medium: 17.29% and 25.03%
* Cc1[nH]/c(=N\C(=O)c2csc(NC3CCCC3)n2)sc1C : Mtb cholesterol medium: 61.09%; Mtb glucose medium: 61.73%
* Cc1cc2c(N)nc(=O)n(CC(=O)Nc3ccccc3)c2s1 : Mtb glucose medium: 32.71%
* Cn1c(=O)c2c(c3ccccc31)OC(C)(C)CC2 : Mtb glucose medium: 7.633% and 19.54%
* Cc1ccc(CN2CC(C(=O)NC(C)C)C3(CCOCC3)C2)s1.O=C(O)C(F)(F)F (centres unmarked) : Mtb glucose medium: 3.553% and -0.8097%
* CC1(C)CCC(C(=O)O)c2ccccc21 (centres unmarked) : Mtb cholesterol medium: -14.57%
* CCN(C(c1cccnc1)c1ccc(F)cc1F)S(C)(=O)=O (centres unmarked) : Mtb cholesterol medium: -10.28%
* COc1cccc(-c2nc(CNC(C)Cn3cccn3)cs2)c1 (centres unmarked) : Mtb glucose medium: -41.98%
* OCC1CCCN1c1cc(N2CCN(c3ccccn3)CC2)ncn1 (centres unmarked) : Mtb glucose medium: -5.123%
* CCC(CO)NCc1ccc(-c2ccc(F)cc2)o1.Cl (centres unmarked) : Mtb cholesterol medium: 10.35%; Mtb glucose medium: 6.878% and 12%
* CN1CCOC(CNCCOc2cccc(C#N)c2)C1 (centres unmarked) : Mtb cholesterol medium: -0.5242% and 79.98%
* O=C(NCC(F)F)c1ccc(S(=O)(=O)N2CCCC(O)C2)cc1 (centres unmarked) : Mtb cholesterol medium: 23.56%
* O=C(O)C(F)(F)F.c1cc(-c2ccc3c(c2)CCC32CCN(c3nncs3)CC2)ccn1 : Mtb glucose medium: -8.736%
* O=C(NCCN1CCOC1=O)c1cc(-c2ccccc2)on1 : Mtb glucose medium: -5.156% and -50.55%
* O=c1c2cc3c(cc2nnn1Cc1ccccc1)OCCO3 : Mtb glucose medium: 19.91%
* Cl.Clc1cccnc1OC1CCNCC1 : Mtb glucose medium: -8.566%
* CC(=O)NCc1noc2c1CN(Cc1cccs1)CC2 : Mtb glucose medium: 4.378% and -14.37%
* COc1ccnc(NC(Cc2ccccc2)C(N)=O)n1 (centres unmarked) : Mtb cholesterol medium: -4.487%
* FC(F)(F)c1ccnc(N2CCC(c3nccn3CC3CC3)CC2)n1 : Mtb cholesterol medium: 55.96%
* O=C(CCSc1ccc2c(c1)OCCO2)NCC1CCS(=O)(=O)C1 (centres unmarked) : Mtb cholesterol medium: 8.968%; Mtb glucose medium: -33.94%
* CCCc1nc2c(c(C)c(C)n2Cc2ccncc2)c(N)c1CC : Mtb glucose medium: 62.75% and 7.657%
* COCCNC(=O)Nc1ccc(F)c(C(N)=O)c1 : Mtb cholesterol medium: -16.39%; Mtb glucose medium: 0.667%
* CN(C)CCNC(=O)c1cnc2c(c1)nc(-c1ccccc1Cl)n2C : Mtb glucose medium: 19.36%
* CN1CCCN(C(=O)c2cc3c(s2)CCN3C(=O)C2CC2)CC1 : Mtb glucose medium: 9.894%
* O=S(=O)(Cc1ccccc1)NCCNc1ccc(-n2cccc2)nn1 : Mtb cholesterol medium: -4.075%; Mtb glucose medium: 33.57% and -2.185%
* COC(=O)CCCN(C)C(c1cccnc1)c1ccc(F)cc1F (centres unmarked) : Mtb cholesterol medium: -12.23% and -2.692%
* O=C(CN(Cc1ccccc1)CC1CCOCC1)NC(=O)NC1CC1 : Mtb glucose medium: -42.93%

The last 2 entries again:

| SMILES | Mtb cholesterol medium | Mtb glucose medium |
|---|---|---|
| `COC(=O)CCCN(C)C(c1cccnc1)c1ccc(F)cc1F` (centres unmarked) | -12.23 and -2.692 | - |
| `O=C(CN(Cc1ccccc1)CC1CCOCC1)NC(=O)NC1CC1` | - | -42.93 |